## Screening data, single-dose tests

Each number is a percent effect as filed. The controls that fix the scale are not given in the record; negative values are as filed. Many other results are left out here, so strong results are more common than in the screen. A dash means the value is not listed here; it may have been measured.

Mtb cholesterol medium: 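Whole-cell growth test on Mycobacterium tuberculosis, read after 4 days in a medium based on cholesterol and the lipid DPPC; the read-out is not stated. Concentration: 500 µM. The record gives no direction; compounds that gave an IC50 in retests scored well above the rest, so higher reads as more growth inhibition. Of about 18,000 compounds tested this way, about 900 (5%) reached 50% or more in at least one test.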
Mtb glucose medium: 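Growth of Mycobacterium tuberculosis over 3 days (7H9 medium with glucose and tyloxapol); the read-out is not stated. Compounds at 500 µM. Higher reads as more growth inhibition (inferred: compounds with an IC50 in retests scored well above the rest). Size under these conditions: about 18,000 compounds, about 1,400 of them at 50% or above in at least one test.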

compound	Mtb cholesterol medium	Mtb glucose medium
CCCNc1nnc(S(=O)(=O)CCCC#N)s1	-	8.405
c1cc(CNCCn2cccn2)c2c(c1)OCCCO2	-	23.66
CCC(CO)NC(=O)Nc1nnc(-c2ccccn2)s1 (centres unmarked)	-	5.067
CN(C(=O)[C@@H](N)Cc1ccccc1)C1CCCC1	-	36.03
Cc1cccnc1NC1=NS(=O)(=O)c2ccccc21	-0.7363	-
COCC1CCCN(C(=O)Cc2ccccc2O)C1 (centres unmarked)	-	15.71
COc1c(F)ccc(F)c1C(=O)NCCC(O)C(C)C (centres unmarked)	-11.24	-
CC(C)C(=O)CNC(=O)C(O)c1ccccc1 (centres unmarked)	3.727	21.76
Cc1nn(-c2ccccc2)cc1CN	13.39	-
COCC(=O)N1CCCN(Cc2ncc[nH]2)CC1	-	1.38
NCCN1CCN(c2cccc(C(F)(F)F)c2)CC1	86.2	80.16
CCc1nccn1CCN1CCCC(NC(C)=O)C1 (centres unmarked)	-11.58	-
Cc1cc(C)cc(C2(C(=O)N(C)CC(N)=O)CCC2)c1	2.298	-
Cc1nc(CN(C)C(=O)[C@H]2CCC[C@H](O)C2)no1	-29.74	-
c1ccc(-n2nnnc2CN2CCNCC2)cc1	-1.715	-
CC(C)COCC(O)CNc1nnc(C(C)C)s1 (centres unmarked)	84.49	66.3
CS(=O)(=O)NCCNCc1cccc(-n2cccn2)c1	11.03	-
CCCNc1nnc(SC2CCOC2)s1 (centres unmarked)	94.06	80.43
CN(Cc1ccccc1N1CCOCC1)S(N)(=O)=O	-	19.84
NCC1(O)Cc2ccccc2C1	-	-2.908
COc1nccnc1CN1CCN(C)CC1C(C)C (centres unmarked)	-	3.989
CC(C)C(C(=O)NCCc1nnc[nH]1)c1ccccc1 (centres unmarked)	-	15.36
c1ccc(CNc2cc(-n3cccn3)ncn2)cc1	3.327	53.49
COc1cc(OC)cc(-c2[nH][nH]c(=O)c2CCN)c1	-	43.47
OC1CCNCc2ccccc21 (centres unmarked)	-	35.84
Nc1nc(N2CCC(CO)CC2)cc([C@H]2C[C@@H](N)C2)n1	-	2.272
CN1CCC(N(C)C(=O)c2ccc(C#N)cc2)CC1	-4.269	-
CCN(C(=O)CSc1ncccn1)C1CCS(=O)(=O)C1 (centres unmarked)	8.145	-
Cn1nc(C2CCCNC2)n(Cc2ccccc2)c1=O (centres unmarked)	-	11.74
CC(C)C(NC(=O)CN1CCCC1=O)c1ccccn1 (centres unmarked)	-16.51	-
Cc1cc(C(=O)N2CCC(F)(F)CC2)cc(C)n1	-	-1.645
O=C(NCCc1c[nH]cn1)c1cn2cccnc2n1	-	-11.91
CNS(=O)(=O)c1ccccc1C(=O)OC	-	5.213
NCC1CN(c2nc3cc(Cl)ccc3o2)CCO1 (centres unmarked)	-	70.88
CCCNCc1cc(OC)c(OCC(N)=O)cc1Br	-	4.994
N#Cc1ccnc(N2CCOCC2)c1	-	7.55
CC(C)(C)C(=O)Nc1ccc(-n2cnnn2)cc1	8.807	-
CC(C)(C)OC(=O)N1CC(F)(F)CC1CO (centres unmarked)	59.36	-
CC(NCC(C)(C)C(N)=O)c1ccc2c(c1)OCO2 (centres unmarked)	-8.403	-
Cc1c[nH]c(C(=O)N2CCCN(C3CCCC3)CC2)n1	-	10.86
CCn1c(CN(C)CC(=O)NC)nnc1[C@H]1C[C@H](N)C1	1.015	-
CC(CCc1cccc(F)c1)N1CCNC(=O)CC1 (centres unmarked)	-	17.58
COc1cc(Cl)ccc1CN1CCNC(=O)C1	-	30.41
CS(=O)(=O)N(c1ccccc1)C1CSC1	-	3.804
COCc1nc(-c2cnn(C)c2)cs1	13.14	-
CC(=O)Nc1ccc(N2C(=O)C=CC2=O)cc1	-	83.61
Cc1noc(C)c1S(=O)(=O)NCCc1ccccn1	-	-4.857
CC(O)CN1C(=O)C=CC1=O (centres unmarked)	114.8	107.4

Repeated from the top, 4 entries:

{"compound": "CCCNc1nnc(S(=O)(=O)CCCC#N)s1", "Mtb glucose medium": 8.405}
{"compound": "c1cc(CNCCn2cccn2)c2c(c1)OCCCO2", "Mtb glucose medium": 23.66}
{"compound": "CCC(CO)NC(=O)Nc1nnc(-c2ccccn2)s1", "stereo": "centres unmarked", "Mtb glucose medium": 5.067}
{"compound": "CN(C(=O)[C@@H](N)Cc1ccccc1)C1CCCC1", "Mtb glucose medium": 36.03}

Data taken from ChEMBL document CHEMBL3988442, “University of Dundee, Small-Polar-MMV Screening Library” (2021).